Taken from: PubChem BioAssay AID504761 (Drosophila RNAi Screening Center, 2011)
Assay: 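Insect host genes that dengue virus relies on to spread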 (primary screen). Cells: D.Mel-2 cells from Drosophila. Reagent: long dsRNA against Drosophila genes. Challenge: infection with dengue virus type 2; dose and infection time not stated. Measurement: 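Cells stained for dengue envelope protein and imaged; percent of infected cells per well on duplicate plates, ranked by infection, with stained nuclei counted for cell number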. Scale: infection score: higher = more virus-infected cells; cell count: higher = more cells in the well. Active means: 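Low infection ranks in the two replicates (chance level up to 0.065) followed by a retest with a 1.5-fold or larger significant decrease, p below 0.05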. Meaning of the calls: active = confirmed: knock-down lowers infection; inactive = not picked or not confirmed.
The screen tested about 22,000 reagents; below is an unselected part of those that have a named target and a result. In the full data, 116 (0.52%) were called active. 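Calls depend on retest data that are not deposited; infection was ranked per plate without normalising between plates; the unit of the infection score is not given.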 The raw values are shown without normalisation. Names joined by + are all predicted targets of the reagent. The record does not give: the amount of reagent, the time to read-out.

| Gene | DRSC id | infection score, replicate 1 | infection score, replicate 2 | cell count, replicate 1 | cell count, replicate 2 | Outcome |
| --- | --- | --- | --- | --- | --- | --- |
| CG5245 | DRSC15750 | 7.76 | 14.9 | 4921 | 6140 | inactive |
| CG5245 | DRSC29337 | – | 5.38 | 352 | 4893 | inactive |
| Osi14 | DRSC12368 | 3.96 | 14.1 | 6773 | 6468 | inactive |
| Osi14 | DRSC26397 | 1.93 | 0.99 | 6123 | 5957 | inactive |
| Pdh | DRSC11249 | 7.45 | 15.3 | 6513 | 5749 | inactive |
| Pdh | DRSC26995 | 4.45 | 8.76 | 6479 | 6380 | inactive |
| Vps25 | DRSC06486 | 6.14 | 10.2 | 6614 | 5417 | inactive |
| CG33272 | DRSC09116 | 2.36 | 3.1 | 4911 | 5222 | inactive |
| CG7488 | DRSC16250 | 7.03 | 8.04 | 5875 | 6693 | inactive |
| Cyp4ac1 | DRSC03302 | 0.48 | 2.55 | 6240 | 7086 | inactive |
| CG10209 | DRSC05980 | 5.77 | 12.2 | 6273 | 6476 | inactive |
| CG5757 | DRSC06951 | 15.5 | 17 | 5519 | 5195 | inactive |
| gammaSnap2 | DRSC15992 | 1.44 | 1.49 | 6736 | 6791 | inactive |
| tub | DRSC12389 | 18.8 | 6.73 | 5500 | 6315 | inactive |
| tub | DRSC22800 | 4.15 | 1.59 | 5611 | 6592 | inactive |
| CG3698 | DRSC11749 | 2.86 | 25.2 | 6739 | 6000 | inactive |
| CG3698 | DRSC26417 | 0.41 | 4.78 | 6658 | 6145 | inactive |
| fest | DRSC07349 | 3.03 | 1.52 | 6003 | 6731 | inactive |
| fest | DRSC24249 | 13.2 | 25.5 | 6134 | 4205 | inactive |
| CG15082 | DRSC06513 | 2.57 | 0.67 | 6184 | 6449 | inactive |
| CG15082 | DRSC27197 | 13.4 | 8.58 | 6715 | 2191 | inactive |
| mbf1 | DRSC11365 | 12.5 | 13.9 | 6285 | 6398 | inactive |
| CG8414 | DRSC07168 | 2.42 | 15 | 6933 | 4718 | inactive |
| Rab19 | DRSC11260 | 2.02 | 1.2 | 5889 | 6166 | inactive |
| Rab19 | DRSC29485 | 5.99 | 3 | 851 | 700 | inactive |
| CG3594 | DRSC04393 | 2.03 | 18.3 | 6370 | 5906 | inactive |
| CG3594 | DRSC21959 | 12 | 1.44 | 6431 | 6812 | inactive |
| CG33298 | DRSC02210 | 14.1 | 0.61 | 4424 | 654 | inactive |
| CG33298 | DRSC02672 | 18.2 | 6.83 | 6223 | 6327 | inactive |
| CG33322 | DRSC03204 | 19.6 | 3.55 | 4176 | 6792 | inactive |
| CG12540 | DRSC19471 | 21.2 | 12.4 | 5452 | 4748 | inactive |
| Dhit | DRSC07411 | 13.6 | 10.9 | 5357 | 5423 | inactive |
| Dhit | DRSC25629 | 5.47 | 7.49 | 6529 | 5650 | inactive |
| Nup205 | DRSC19432 | 9.58 | 1.51 | 5742 | 5772 | inactive |
| S-Lap8 | DRSC06870 | 5.65 | 6.11 | 6607 | 6745 | inactive |
| S-Lap8 | DRSC21372 | 2.32 | 6.67 | 6085 | 6285 | inactive |
| S-Lap8 | DRSC29560 | 11.8 | 0.68 | 5763 | 442 | inactive |
| Cog4 | DRSC03057 | 9.69 | 24.4 | 6577 | 5938 | inactive |
| CG7506 | DRSC10860 | 9.88 | 13.1 | 5497 | 5288 | inactive |
| Hers + amn | DRSC20306 | 4.26 | 4.3 | 5253 | 5305 | inactive |

Laid out differently: results already given.
tub [DRSC12389] | infection score, replicate 1: 18.8; infection score, replicate 2: 6.73; cell count, replicate 1: 5500; cell count, replicate 2: 6315; Outcome: inactive
tub [DRSC22800] | infection score, replicate 1: 4.15; infection score, replicate 2: 1.59; cell count, replicate 1: 5611; cell count, replicate 2: 6592; Outcome: inactive
CG3698 [DRSC11749] | infection score, replicate 1: 2.86; infection score, replicate 2: 25.2; cell count, replicate 1: 6739; cell count, replicate 2: 6000; Outcome: inactive
CG3698 [DRSC26417] | infection score, replicate 1: 0.41; infection score, replicate 2: 4.78; cell count, replicate 1: 6658; cell count, replicate 2: 6145; Outcome: inactive
fest [DRSC07349] | infection score, replicate 1: 3.03; infection score, replicate 2: 1.52; cell count, replicate 1: 6003; cell count, replicate 2: 6731; Outcome: inactive
fest [DRSC24249] | infection score, replicate 1: 13.2; infection score, replicate 2: 25.5; cell count, replicate 1: 6134; cell count, replicate 2: 4205; Outcome: inactive
CG15082 [DRSC06513] | infection score, replicate 1: 2.57; infection score, replicate 2: 0.67; cell count, replicate 1: 6184; cell count, replicate 2: 6449; Outcome: inactive
CG15082 [DRSC27197] | infection score, replicate 1: 13.4; infection score, replicate 2: 8.58; cell count, replicate 1: 6715; cell count, replicate 2: 2191; Outcome: inactive

Next records:
| Gene | DRSC id | infection score, replicate 1 | infection score, replicate 2 | cell count, replicate 1 | cell count, replicate 2 | Outcome |
| --- | --- | --- | --- | --- | --- | --- |
| lncRNA:CR31044 | DRSC22451 | 3.69 | 5.58 | 6238 | 6115 | inactive |
| lncRNA:CR31044 | DRSC25989 | 1.68 | 5.82 | 6565 | 6649 | inactive |
| Jon65Ai | DRSC09731 | 1.1 | 4.75 | 5982 | 5912 | inactive |
| Jon65Ai | DRSC24837 | 5.3 | 5.04 | 6033 | 5497 | inactive |
| amx | DRSC23466 | 2.12 | 2.69 | 6329 | 6513 | inactive |
| mav | DRSC17149 | 1.23 | 3.46 | 6336 | 5748 | inactive |
| Srr | DRSC16382 | 2.62 | 4.1 | 7065 | 7118 | inactive |
| Srr | DRSC27485 | 7.25 | 2.16 | 6278 | 6066 | inactive |
| CG45002 | DRSC20144 | 7.6 | 7.91 | 6212 | 6218 | inactive |
| dpr16 | DRSC12217 | 1.86 | 1.52 | 6403 | 6832 | inactive |
| dpr16 | DRSC12249 | 1.8 | 1.86 | 6503 | 6943 | inactive |
| Ir75b | DRSC10189 | 4.02 | 3.79 | 6397 | 6462 | inactive |
| dhd | DRSC18761 | 9.54 | 5.88 | 5965 | 6461 | inactive |
| dhd | DRSC29590 | 0.38 | – | 263 | 334 | inactive |
| CG11585 | DRSC19410 | 1.35 | 3.84 | 5987 | 6607 | inactive |
| CG11585 | DRSC27386 | 13.7 | 13.6 | 5105 | 6428 | inactive |
| CG18787 + CG18789 | DRSC24994 | 9.07 | 17.7 | 3427 | 6101 | inactive |
| Cyp4d1 | DRSC17694 | 1.13 | 0.89 | 6182 | 6065 | inactive |
| Cyp4d1 | DRSC18456 | – | 7.36 | 302 | 3884 | inactive |
| Cyp4d1 | DRSC23948 | 0.6 | 2.47 | 6120 | 6001 | inactive |
